{"source": "paper PMC10252837", "about": "“A Novel Time-Resolved Fluorescence Resonance Energy Transfer Assay for the Discovery of Small-Molecule Inhibitors of HIV-1 Tat-Regulated Transcription” (International Journal of Molecular Sciences, 2023)"}
{"system": "HIV-1NL4-3", "test": "HIV-1 infectivity in TZM-bl cells (LTR-driven F-Luc)", "assay_type": "cell-based", "protocol": "(A) (Upper panel) Doxycycline (Dox)-inducible Tat-expressing bl-DTR cells cultured in 96-well plates treated with two-fold serial dilutions of each compound in the presence of Dox (50 ng/mL). At 24 h after treatment, the activity of firefly luciferase (F-Luc), indicating Tat activity, was determined as described in the Materials and Methods section. (Bottom panel) TZM-bl cells were treated with two-fold serial dilutions of the indicated compound and then infected with the HIV-1NL4-3 strain at a multiplicity of infection (MOI) of 1. At 24 h after infection, the viral infectivity and cell viability were determined as described in the Materials and Methods section. […] (B) 2 × 10^5 TZM-bl cells growing in 6-well plates were infected with HIV-1 (MOI = 1), transfected with a Tat-expressing plasmid (2 μg) or treated with PMA ([…]) upon indicated compounds at indicated concentrations, respectively. At 24 h after treatment, LTR promoter activity was determined via a Bright-Glo Luciferase Assay Kit. […] The mobility of biotinylated TAR RNA was detected by chemiluminescence.\nTo determine the inhibitory effect of hit compounds on HIV-1 infection, we used TZM-bl cells (also referred to as JC53BL-13), which express HIV-1 receptors and contain the LTR-driven F-Luc gene controlled by HIV-1 infection, as described previously but with some minor modifications. […] At 24 h after infection, the inhibitory effect of the hit compounds on infectivity was determined using the Bright-Glo Luciferase Assay Kit (Promega). The dose–response data are expressed as a relative percentage compared to the DMSO control (vehicle). The inhibitory effects of the hit compounds on HIV-1 replication were determined as previously described. […] After infection, the cells were treated with hit compounds at the indicated concentrations at 3–5 days after treatment, and the inhibitory effect of hit compounds on viral replication was determined by the titration of virions from the cell supernatant using a p24 […]™ Assay Kit (PerkinElmer) according to the manufacturer’s instructions. […]"}
{"smiles": "O=C(O)C1CCCc2sc(C=Cc3cc(Cl)c4c(c3)OCCO4)nc21", "note": "(stereo not drawn) [Hit 458-F08, 2-(2-(8-Chloro-2,3-dihydrobenzo[b][1,4]dioxin-6-yl)vinyl)-4,5,6,7-tetrahydrobenzo[d]thiazole-4-carboxylic acid]", "SI (selectivity index)": ">9.720"}
{"smiles": "Cc1ccc(-c2csc3ncnc(NCCCc4n[nH]c(N)c4C#N)c23)cc1", "note": "[Hit 463-B11, 5-Amino-3-(3-(5-p-tolylthieno[2,3-d]pyrimidin-4-ylamino)propyl)-1H-pyrazole-4-carbonitrile]", "SI (selectivity index)": ">2.484"}
{"smiles": "Cc1ccc(Nc2cc3c(n[n+]([O-])n3CCCN3CCCCC3)c3c2C(=O)c2ccccc2C3=O)cc1", "note": "[Hit 464-A09, 6,11-Dioxo-3-(3-(piperidin-1-yl)propyl)-5-(p-tolylamino)-6,11-dihydro-3H-anthra[1,2-d][1,2,3]triazole 2-oxide]", "SI (selectivity index)": 1.645}
